We go through 4 sequences from paper PMC7438161.

The target in this data set is nsp9 (SARS-CoV-2) (UniProt P0DTD1). The data set can be described thus: EMSA. The note with it: 10 mM HEPES pH 8.0, 50 mM KCl, 1 mM EDTA, 0.05% Triton X-100, 5% glycerol, 30 min at 4 °C, recombinant protein, protein details: His-SUMO tag removed with Ulp1, label: 5'-FAM.

For at least one entry, the source does not settle the construct or the ends of the probe. At least one verdict was read from the data and is not stated in words by the source.

As to GCTTTGATTTCG [12-mer ssDNA], the binding result (single-stranded DNA) is recorded as “binds”. Same read-out and setting: next, “GCTTTGATTTCGTGCATCTATGGAGC [26-mer ssDNA]”: “binds”. On to GCUUUGAUUUCG [12-mer ssRNA], for which the binding result is listed as “binds”.

On to “GCUUUGAUUUCGUGCAUCUAUGGAGC [26-mer ssRNA]”, for which the binding result is recorded as “binds”.
